Anti-infective test results gathered from many reports (values: NIAID ChemDB through PubChem).

Common to all: whole-cell or culture tests; agent: Mycobacterium marinum

Neighbouring rows are from separate reports.

smiles | endpoint | read by | strain or isolate | result
CCCCCCCCCCCN(CCCCCCCCCCC)C(=O)NC(CCC(=O)O)(CCC(=O)O)CCC(=O)O | MIC | - | ATCC 927 | 72 µg/mL
O=[N+]([O-])c1ccc(COc2ccc(-c3n[nH]c(C(F)(F)F)c3-c3ccccc3)c(O)c2)cc1 | MIC | visual reading | - | >50 µg/mL
C=C1C(=O)[C@@]23C(=O)O[C@H]4CCC(C)(C)[C@H]5C(=O)OC[C@@]45[C@@H]2CC[C@@H]1[C@H]3OC(=O)c1cnccn1 | MIC | resazurin | ATCC 927 | >64 µg/mL
Cc1c(C)c(C)[c-](C)c1C.N[C@@H](Cc1ccccc1)C(=O)[O-].[Cl][Ir+2] | MIC | - | ATCC 927 | >250 µg/mL
C=C1C(=O)[C@@]23C(=O)O[C@H]4CCC(C)(C)[C@H]5C(=O)OC[C@@]45[C@@H]2CC[C@@H]1[C@H]3OC(=O)C1CCCC1 | MIC | resazurin | ATCC 927 | 4 µg/mL
COc1ccc(-c2n[nH]c(C(F)(F)F)c2-c2ccc(Cl)cc2)c(O)c1 | MIC | visual reading | - | 50 µg/mL
COc1ccc(NC(=O)c2cc(Cl)ccc2OC(=O)[C@@H](NC(=O)OCc2ccccc2)C(C)C)cc1 | MIC100 | broth dilution | CAMP 5644 | 251 µM
CCCCCCCCCCCCCCCCCCCCNC(=O)NC(CCC(=O)O)(CCC(=O)O)CCC(=O)O | MIC | - | ATCC 927 | 36 µg/mL
C=C1C(=O)[C@@]23C(=O)O[C@H]4CCC(C)(C)[C@H]5[C@H](O)OC[C@@]45[C@@H]2CC[C@@H]1[C@H]3OC(=O)c1cnccn1 | MIC | resazurin | ATCC 927 | >64 µg/mL
COc1ccc(-c2c(-c3ccc(OC)c(C)c3O)n[nH]c2C(F)(F)F)cc1 | MIC | visual reading | - | >50 µg/mL
C=C1C(=O)[C@@]23C(=O)O[C@H]4CCC(C)(C)[C@H]5C(=O)OC[C@@]45[C@@H]2CC[C@@H]1[C@H]3OC(=O)c1ccccc1 | MIC | resazurin | ATCC 927 | 8 µg/mL
NNC(=O)COc1ccc(-c2n[nH]c(C(F)(F)F)c2-c2ccc(Br)cc2)c(O)c1 | MIC | visual reading | - | >50 µg/mL
CCCCCCCC(CCCCCCC)NC(=O)NC(CCC(=O)O)(CCC(=O)O)CCC(=O)O | MIC | - | ATCC 927 | 144 µg/mL
CCOC(=O)c1c(-c2ccccc2)c2ccc(Cl)cc2oc1=O | MIC90 | resazurin | ATCC 927 | >100 µg/mL
CCCCCCCCCCCCCCCCCCCC(=O)NC(CCC(=O)O)(CCC(=O)O)CCC(=O)O | MIC | - | ATCC 927 | 27 µg/mL
CCOc1ccc(-c2n[nH]c(C)c2-c2ccc(Cl)cc2)c(O)c1 | MIC | visual reading | - | >50 µg/mL
Cc1ccc(NC(=O)c2cc(Cl)ccc2OC(=O)[C@@H](Cc2cc3ccccc3[nH]2)NC(=O)OCc2ccccc2)cc1 | MIC100 | broth dilution | CAMP 5644 | 110 µM
C=C1C(=O)[C@@]23C(CC[C@@H]1[C@H]2OC(=O)c1ccc(F)cc1)[C@@]12COC3(O)[C@@H](O)[C@@H]1C(C)(C)CC[C@@H]2OC(C)=O | MIC | resazurin | ATCC 927 | 8 µg/mL
COc1ccc(-c2c(-c3ccc(OCc4ccc(C)cc4)cc3O)n[nH]c2C(F)(F)F)cc1OC | MIC | visual reading | - | 50 µg/mL

A number after MIC or MFC names an inhibition level or a share of isolates. An empty or dashed field is not shown.